{"source": "PubChem BioAssay AID1259414 (Drosophila RNAi Screening Center, 2018)", "purpose": "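Host factors increasing or decreasing Wolbachia levels in cultured fly cells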 (primary screen)", "system": "Drosophila JW18 cells infected with Wolbachia", "reagent": "long dsRNA against Drosophila genes, 0.25 µg dsRNA per well of a 384-well plate", "duration": "5 days", "challenge": "cells persistently infected with Wolbachia before knock-down; no added drug", "read-out": "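Imaged fluorescence in situ signal for Wolbachia 23S rRNA per DAPI-counted host cell, given as a robust z-score within each plate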", "reading the numbers": "Wolbachia per cell robust z: higher = more Wolbachia per host cell than the plate typical", "hit rule": "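Active if absolute robust z reaches 1.5 in two or more of three replicates, leaving out multi- or no-target dsRNAs, genes unexpressed in JW18 and A1 wells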", "note": "The screen tested about 24,000 reagents; this is an unselected part of those with a known target gene and a result. Over the whole deposit, about 1,210 (5%) were called active. 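Inactive calls also include excluded dsRNAs with several or no targets, genes unexpressed in JW18, and well A1, regardless of score.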"}
{"Gene": "CG34396", "DRSC id": "DRSC04245", "Wolbachia per cell robust z, rep 1": -4.45, "Wolbachia per cell robust z, rep 2": -0.159, "Wolbachia per cell robust z, rep 3": 0.156, "Outcome": "inactive"}
{"Gene": "CG34396", "DRSC id": "DRSC04246", "Wolbachia per cell robust z, rep 1": -4.72, "Wolbachia per cell robust z, rep 2": -0.415, "Wolbachia per cell robust z, rep 3": -0.788, "Outcome": "inactive"}
{"Gene": "CG34396", "DRSC id": "DRSC29674", "Wolbachia per cell robust z, rep 1": -0.983, "Wolbachia per cell robust z, rep 2": -1.85, "Wolbachia per cell robust z, rep 3": -1.04, "Outcome": "inactive"}
{"Gene": "CG9641", "DRSC id": "DRSC00721", "Wolbachia per cell robust z, rep 1": -0.225, "Wolbachia per cell robust z, rep 2": -1.58, "Wolbachia per cell robust z, rep 3": -1.1, "Outcome": "inactive"}
{"Gene": "CG9641", "DRSC id": "DRSC27080", "Wolbachia per cell robust z, rep 1": 0.572, "Wolbachia per cell robust z, rep 2": -0.0428, "Wolbachia per cell robust z, rep 3": 0.234, "Outcome": "inactive"}
{"Gene": "resilin", "DRSC id": "DRSC05627", "Wolbachia per cell robust z, rep 1": 0.00248, "Wolbachia per cell robust z, rep 2": 0.0247, "Wolbachia per cell robust z, rep 3": -0.184, "Outcome": "inactive"}
{"Gene": "resilin", "DRSC id": "DRSC06595", "Wolbachia per cell robust z, rep 1": 1.06, "Wolbachia per cell robust z, rep 2": 1.74, "Wolbachia per cell robust z, rep 3": 1.35, "Outcome": "inactive"}
{"Gene": "Jhbp14", "DRSC id": "DRSC01988", "Wolbachia per cell robust z, rep 1": -2.45, "Wolbachia per cell robust z, rep 2": 0.542, "Wolbachia per cell robust z, rep 3": 0.434, "Outcome": "inactive"}
{"Gene": "Gprk1", "DRSC id": "DRSC20732", "Wolbachia per cell robust z, rep 1": -0.506, "Wolbachia per cell robust z, rep 2": -0.593, "Wolbachia per cell robust z, rep 3": -0.697, "Outcome": "inactive"}
{"Gene": "Gprk1", "DRSC id": "DRSC20916", "Wolbachia per cell robust z, rep 1": 1, "Wolbachia per cell robust z, rep 2": -0.116, "Wolbachia per cell robust z, rep 3": -10.5, "Outcome": "inactive"}
{"Gene": "RpS12", "DRSC id": "DRSC11270", "Wolbachia per cell robust z, rep 1": 2.15, "Wolbachia per cell robust z, rep 2": 3.78, "Wolbachia per cell robust z, rep 3": 4.09, "Outcome": "active"}
{"Gene": "CG13239", "DRSC id": "DRSC11694", "Wolbachia per cell robust z, rep 1": -0.112, "Wolbachia per cell robust z, rep 2": -0.981, "Wolbachia per cell robust z, rep 3": 0.886, "Outcome": "inactive"}
{"Gene": "Uros1", "DRSC id": "DRSC18191", "Wolbachia per cell robust z, rep 1": 0.453, "Wolbachia per cell robust z, rep 2": 0.000717, "Wolbachia per cell robust z, rep 3": -0.0771, "Outcome": "inactive"}
{"Gene": "Uros1", "DRSC id": "DRSC29316", "Wolbachia per cell robust z, rep 1": -0.721, "Wolbachia per cell robust z, rep 2": 0.214, "Wolbachia per cell robust z, rep 3": 0.24, "Outcome": "inactive"}
{"Gene": "mute", "DRSC id": "DRSC06562", "Wolbachia per cell robust z, rep 1": 0.0657, "Wolbachia per cell robust z, rep 2": 0.868, "Wolbachia per cell robust z, rep 3": -0.497, "Outcome": "inactive"}
{"Gene": "mute", "DRSC id": "DRSC22931", "Wolbachia per cell robust z, rep 1": -0.295, "Wolbachia per cell robust z, rep 2": -0.443, "Wolbachia per cell robust z, rep 3": 0.0983, "Outcome": "inactive"}
{"Gene": "mute", "DRSC id": "DRSC29848", "Wolbachia per cell robust z, rep 1": 0.16, "Wolbachia per cell robust z, rep 2": -2.79, "Wolbachia per cell robust z, rep 3": -2.4, "Outcome": "active"}
{"Gene": "CG5644", "DRSC id": "DRSC10531", "Wolbachia per cell robust z, rep 1": -0.036, "Wolbachia per cell robust z, rep 2": -1.4, "Wolbachia per cell robust z, rep 3": -0.55, "Outcome": "inactive"}
{"Gene": "CG13155", "DRSC id": "DRSC06280", "Wolbachia per cell robust z, rep 1": 1.01, "Wolbachia per cell robust z, rep 2": 0.736, "Wolbachia per cell robust z, rep 3": 0.291, "Outcome": "inactive"}
{"Gene": "Msp300", "DRSC id": "DRSC00856", "Wolbachia per cell robust z, rep 1": 0.801, "Wolbachia per cell robust z, rep 2": -0.000275, "Wolbachia per cell robust z, rep 3": 1.34, "Outcome": "inactive"}
{"Gene": "Msp300", "DRSC id": "DRSC00857", "Wolbachia per cell robust z, rep 1": -0.472, "Wolbachia per cell robust z, rep 2": -3.31, "Wolbachia per cell robust z, rep 3": -1.72, "Outcome": "active"}
{"Gene": "Msp300", "DRSC id": "DRSC00858", "Wolbachia per cell robust z, rep 1": -1.48, "Wolbachia per cell robust z, rep 2": -0.889, "Wolbachia per cell robust z, rep 3": -2.26, "Outcome": "inactive"}
{"Gene": "Msp300", "DRSC id": "DRSC02360", "Wolbachia per cell robust z, rep 1": 0.505, "Wolbachia per cell robust z, rep 2": -0.457, "Wolbachia per cell robust z, rep 3": -1.62, "Outcome": "inactive"}
{"Gene": "Msp300", "DRSC id": "DRSC03369", "Wolbachia per cell robust z, rep 1": -1.34, "Wolbachia per cell robust z, rep 2": -0.724, "Wolbachia per cell robust z, rep 3": -0.988, "Outcome": "inactive"}
{"Gene": "Msp300", "DRSC id": "DRSC03370", "Wolbachia per cell robust z, rep 1": -0.262, "Wolbachia per cell robust z, rep 2": -0.581, "Wolbachia per cell robust z, rep 3": -0.842, "Outcome": "inactive"}
{"Gene": "Msp300", "DRSC id": "DRSC40679", "Wolbachia per cell robust z, rep 1": 0.959, "Wolbachia per cell robust z, rep 2": 0.506, "Wolbachia per cell robust z, rep 3": -0.736, "Outcome": "inactive"}
{"Gene": "jdp", "DRSC id": "DRSC16975", "Wolbachia per cell robust z, rep 1": 0.0754, "Wolbachia per cell robust z, rep 2": -3.8, "Wolbachia per cell robust z, rep 3": -0.19, "Outcome": "inactive"}
{"Gene": "jdp", "DRSC id": "DRSC29394", "Wolbachia per cell robust z, rep 1": 0.527, "Wolbachia per cell robust z, rep 2": 0.848, "Wolbachia per cell robust z, rep 3": 0.354, "Outcome": "inactive"}
{"Gene": "Fife", "DRSC id": "DRSC08409", "Wolbachia per cell robust z, rep 1": 1.07, "Wolbachia per cell robust z, rep 2": -0.143, "Wolbachia per cell robust z, rep 3": -0.951, "Outcome": "inactive"}
{"Gene": "Fife", "DRSC id": "DRSC08499", "Wolbachia per cell robust z, rep 1": 0.743, "Wolbachia per cell robust z, rep 2": 0.188, "Wolbachia per cell robust z, rep 3": -0.557, "Outcome": "inactive"}
{"Gene": "Fife", "DRSC id": "DRSC23483", "Wolbachia per cell robust z, rep 1": 1.18, "Wolbachia per cell robust z, rep 2": 0.656, "Wolbachia per cell robust z, rep 3": 0.431, "Outcome": "inactive"}
{"Gene": "Fife", "DRSC id": "DRSC25709", "Wolbachia per cell robust z, rep 1": -0.56, "Wolbachia per cell robust z, rep 2": -0.539, "Wolbachia per cell robust z, rep 3": 0.532, "Outcome": "inactive"}

An excerpt from the list above, as a working copy:
{"Gene": "jdp", "DRSC id": "DRSC29394", "Wolbachia per cell robust z, rep 1": 0.527, "Wolbachia per cell robust z, rep 2": 0.848, "Wolbachia per cell robust z, rep 3": 0.354, "Outcome": "inactive"}
{"Gene": "Fife", "DRSC id": "DRSC08409", "Wolbachia per cell robust z, rep 1": 1.07, "Wolbachia per cell robust z, rep 2": -0.143, "Wolbachia per cell robust z, rep 3": -0.951, "Outcome": "inactive"}
{"Gene": "Fife", "DRSC id": "DRSC08499", "Wolbachia per cell robust z, rep 1": 0.743, "Wolbachia per cell robust z, rep 2": 0.188, "Wolbachia per cell robust z, rep 3": -0.557, "Outcome": "inactive"}
